Compound potency records, mixed from different reports. Data source: NIAID ChemDB in PubChem.

Shared fields: target-level tests; organism: Hepatitis C virus; target: Nonstructural protein 5B

Blank or dashed fields: not listed here. Inhibition is in % at the dose shown (toxicity tests: loss of growth or viability). Two numbers with a dash give a range or band. Conditions beyond the fields shown may differ between rows. ICn: concentration for n% inhibition.

smiles,measure,dose,result
CN(C)CCN(Cc1ccccc1)C(=O)c1ccc(S(=O)(=O)Nc2ccc(N3CCOCC3)cc2)cc1,inhibition,1 µg/mL,73%
CC(=O)Nc1cc(C(C)(C)C)c(SC2=C(O)CC(CCc3ccc(O)cc3)(C3CCCC3)OC2=O)cc1C,IC50,,1–10 µM
CNC(=O)c1c(-c2ccc(F)cc2)oc2cc(N3CCOCC3)c(OCc3csc(C)n3)cc12,IC50,,≤0.5 µM
Cc1ccc(S(=O)(=O)Oc2cc(C(C)(C)C)c(SC3=C(O)CC(CCc4ccc(O)cc4)(C4CCCC4)OC3=O)cc2C)cc1,IC50,,10–50 µM
CCOC(=O)c1cc(-c2ccc(C=C3SC(=S)N(CC(=O)O)C3=O)o2)ccc1Cl,IC50,,≤1 µM
COc1nc(NCCc2c[nH]c3ccccc23)nc(Nc2ccc3[nH]ncc3c2)n1,inhibition,0.1 µg/mL,7%
O=C(O)CCN1C(=O)C(=Cc2ccc(C#Cc3ccccc3)o2)SC1=S,IC50,,≤1 µM
COc1ccc(CCC2(C3CCCC3)CC(O)=C(Sc3nnnn3-c3ccc(O)cc3)C(=O)O2)cc1,IC50,,<1 µM
CNC(=O)c1c(-c2ccc(F)cc2)oc2cc(N(C)S(=O)(=O)CC3CC3)c(OC(C)C)cc12,IC50,,≤0.5 µM
CNC1N=C(OC)N=C(Nc2ccc3cn[nH]c3c2)N1CN,inhibition,1 µg/mL,26%
COc1ccc(CCC2(C3CCCC3)CC(=O)C(C(=O)Cc3cc(C)no3)C(=O)O2)cc1,IC50,,10–50 µM
CNC(=O)c1c(-c2ccc(Cl)c(F)c2)oc2ccc(OC)cc12,IC50,,≤0.5 µM
CNC(=O)CN1CCN(c2nc(Nc3ccc4[nH]ncc4c3)nc(OC)n2)CC1,inhibition,1 µg/mL,20%
CN(C)C(=O)c1ccc(S(=O)(=O)Nc2ccc(N3CCOCC3)cc2)cc1,inhibition,0.01 µg/mL,20%
COc1nc(Nc2ccc3cn[nH]c3c2)nc(N2CCN(C)CC2)n1,inhibition,10 µg/mL,30%
COc1cc(OC)c(CCC2(C3CCCC3)CC(O)=C(Sc3nccs3)C(=O)O2)cc1Cl,IC50,,<1 µM
CNC(=O)c1c(-c2ccc(F)cc2)oc2cc(-c3cc(COC)on3)c(OC(C)C)cc12,IC50,,≤0.5 µM
CCCc1ccc(CCC2(C3CCCC3)CC(=O)CC(=O)O2)cc1,IC50,,1–10 µM
O=C(O)CCN1C(=O)C(=Cc2ccc(C#Cc3ccccc3)s2)SC1=S,IC50,,≤1 µM
CNC(=O)c1c(-c2ccc(F)cc2)oc2cc(C(C)(C)O)c(OC(C)C)cc12,IC50,,≤0.5 µM
CCOC(=O)N1CCN(c2nc(Nc3ccc4[nH]ncc4c3)nc(OC)n2)CC1,inhibition,0.1 µg/mL,0%
CNC(=O)c1c(-c2ccc(F)cc2)oc2cc(N3CCC(S(C)(=O)=O)C3)c(OC(C)C)cc12,IC50,,≤0.5 µM
COc1nc(NCCCn2ccnc2)nc(Nc2ccc3cn[nH]c3c2)n1,inhibition,10 µg/mL,66%
CNC(=O)c1c(-c2ccc(F)cc2)oc2cc(C)c(OC(C)C)c(S(N)(=O)=O)c12,IC50,,≤0.5 µM
O=C(O)CCN1C(=O)C(=Cc2ccc(-c3ccc4c(c3)OCO4)o2)SC1=S,IC50,,≤1 µM
CNC(=O)c1c(-c2ccc(F)cc2)oc2cc(-c3c(C)noc3C)c(OCc3cc(C)on3)cc12,IC50,,≤0.5 µM
Cc1cnc(CNC(=O)c2ccc(S(=O)(=O)Nc3ccc(N4CCOCC4)cc3)cc2)cn1,inhibition,0.01 µg/mL,47%
CNC(=O)c1c(-c2ccc(F)cc2)oc2cc(C3CCCN3S(C)(=O)=O)c(OC)cc12,IC50,,≤0.5 µM
O=C(O)CN1C(=O)C(=Cc2ccc(-c3ccc(Cl)cc3)o2)SC1=S,IC50,,≤1 µM

Repeating the final 3 entries:

smiles | measure | dose | result
Cc1cnc(CNC(=O)c2ccc(S(=O)(=O)Nc3ccc(N4CCOCC4)cc3)cc2)cn1 | inhibition | 0.01 µg/mL | 47%
CNC(=O)c1c(-c2ccc(F)cc2)oc2cc(C3CCCN3S(C)(=O)=O)c(OC)cc12 | IC50 |  | ≤0.5 µM
O=C(O)CN1C(=O)C(=Cc2ccc(-c3ccc(Cl)cc3)o2)SC1=S | IC50 |  | ≤1 µM